# Measured values from US9499601B2, “Molecular probe for sphingolipids” (Agency for Science, Technology and Research, priority 2006, dated 2016).
# Tested on: plasma membrane of SH-SY5Y neuroblastoma cells
# Test: Fluorescence Correlation Spectroscopy (FCS) diffusion time at the plasma membrane
# Type: cell-based, human
# Conditions: untreated cells
substance,measurement,value
CtxB-Alexa594,distribution of τDs (main range),> 30 ms

# Some results come without the dose or concentration used.
